Values from PubChem BioAssay AID1259414 (Drosophila RNAi Screening Center, 2018).

Purpose: 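Fly genes that alter Wolbachia amount inside host cells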 (primary screen)
Cells: Drosophila JW18 cells infected with Wolbachia
Reagents: long dsRNA against Drosophila genes, 0.25 µg dsRNA per well of a 384-well plate
Time to read-out: 5 days
Treatment: cells persistently infected with Wolbachia before knock-down; no added drug
Detection: 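Imaged fluorescence in situ signal for Wolbachia 23S rRNA per DAPI-counted host cell, given as a robust z-score within each plate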
Scale: Wolbachia per cell robust z: higher = more Wolbachia per host cell than the plate typical
Call rule: 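Hit when robust z is 1.5 or more, or -1.5 or less, in at least two of three replicates; excludes dsRNAs with several or no targets, genes not expressed in JW18 and well A1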
The deposit covers about 24,000 reagents; this is an unselected part of those that have a named target and a result. Over the whole deposit, about 1,210 (5%) were called active. 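Inactive calls also include excluded dsRNAs with several or no targets, genes unexpressed in JW18, and well A1, regardless of score.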 A number with no mark means an inactive call. A plus sign joins genes that one reagent is predicted to hit. No sequences are given here.

no.	Target gene	amplicon	Wolbachia per cell robust z, rep 1	Wolbachia per cell robust z, rep 2	Wolbachia per cell robust z, rep 3
1	Arl6IP1 (ADP-ribosylation factor-like 6 interacting protein 1)	DRSC14231	1.26	1.42	1.5
2	Cyp12a4 (Cytochrome P450 12a4)	DRSC16620	0.457	0.393	-1.07
3	Cyp12a4 (Cytochrome P450 12a4)	DRSC24072	0.436	-0.319	-0.734
4	Gip (GIP-like)	DRSC18667	-1.94	0.235	-0.865
5	CG4372	DRSC04466	-0.125	0.439	0.721
6	COX8 (Cytochrome c oxidase subunit 8)	DRSC11814	0.204	0.0539	-0.345
7	COX8 (Cytochrome c oxidase subunit 8)	DRSC28975	-0.548	-0.968	-1.96
8	Sap130 (Sin3A-associated protein 130)	DRSC09680	-1.5	1.82	-0.00993
9	Sap130 (Sin3A-associated protein 130)	DRSC28079	-2.09	1.15	2
10	CG5160	DRSC02821	0.464	0.193	1.13
11	CG5160	DRSC28456	0.331	-0.29	1.19
12	CG4650	DRSC02767	1.69	-1.27	-0.434
13	CG8870	DRSC16452	-4.28	0.0814	0.966
14	CG8664	DRSC20116	0.36	-0.685	-0.42
15	yem (yemanuclein)	DRSC14865	-3.61	0.0978	-0.1
16	yem (yemanuclein)	DRSC17097	0.0106	0.461	0.295
17	PIG-P + Tcs6	DRSC13742	-0.209	-0.0563	0.283
18	PIG-P + Tcs6	DRSC14893	-0.414	-0.466	0.823
19	nompA (no mechanoreceptor potential A)	DRSC06329	0.115	-0.229	-0.291
20	Psf3 (Partner of Sld Five 3)	DRSC18216	-0.679	-0.903	-1.04
21	Psf3 (Partner of Sld Five 3)	DRSC21487	0.0296	-1.16	0.204
22	Kyat (Kynurenine aminotransferase)	DRSC16147	-0.372	1.34	0.324
23	Syb (Synaptobrevin)	DRSC07559	-2.21 (active)	1.5	4.04
24	Syb (Synaptobrevin)	DRSC25904	-0.817	3.25	0.0731
25	CG12784	DRSC14539	-1.17	-0.196	-0.392
26	GstO2 (Glutathione S transferase O2)	DRSC10691	-0.143	-0.982	0.852
27	GstO2 (Glutathione S transferase O2)	DRSC29069	0.365	-1.35	-0.431
28	Cortactin	DRSC16612	-0.259	-1.12	-1.31
29	Cortactin	DRSC28012	-0.177	0.383	-0.791
30	slp1 (sloppy paired 1)	DRSC00835	0.0078	-0.54	1.03
31	slp1 (sloppy paired 1)	DRSC24204	0.847	0.253	0.00152
32	Acn (Acinus)	DRSC02062	0.214	-0.504	-1.53
33	Acn (Acinus)	DRSC29245	-1.36	-0.796	-1.38
34	eIF4A (eukaryotic translation initiation factor 4A)	DRSC03526	4.22 (active)	3.22	0.787
35	eIF4A (eukaryotic translation initiation factor 4A)	DRSC26043	4.95 (active)	3.33	4.34
36	mRpS2 (mitochondrial ribosomal protein S2)	DRSC00550	-0.296	-0.394	1.1
37	CG42323	DRSC19629	-4.86	-1.92	0.346
38	CG42323	DRSC21397	0.401	0.355	0.668
39	CG18420	DRSC01954	-1.02	-1.95	-0.797
40	form3 (formin 3)	DRSC10195	-1.93 (active)	-4.92	-0.446
41	form3 (formin 3)	DRSC10297	0.281	0.522	-0.175
42	form3 (formin 3)	DRSC11024	0.11	0.941	0.441
43	Datp (Diadenosine tetraphosphatase)	DRSC01102	-7.62	-1.79	-1.31
44	Datp (Diadenosine tetraphosphatase)	DRSC41453	1.08	-1.58	-0.255
45	CG9368	DRSC11067	0.323	0.687	0.62
46	CG9368	DRSC24280	-0.291	-1.39	-1.04
47	TwdlK (TweedleK)	DRSC24969	-0.677	-0.163	-0.629
48	CR40450 + CG32767	DRSC18387	0.981	-0.26	0.487
49	CG6271	DRSC16006	0.428	0.479	0.203
50	CG6271	DRSC25865	-0.703	-0.0705	-3
51	CG12923	DRSC06237	0.206	0.243	0.453
52	IFT52 (Intraflagellar transport 52)	DRSC03271	1.3	-0.195	0.217
53	IFT52 (Intraflagellar transport 52)	DRSC28697	-1.12	-0.585	-0.398
54	mRpS5 (mitochondrial ribosomal protein S5)	DRSC21380	0.851	1.32	1.47
55	tra2 (transformer 2)	DRSC07708	-0.48 (active)	-3.32	-2.4
56	tra2 (transformer 2)	DRSC29704	0.069	0.409	-0.324
57	CG34116 + Ccdc58	DRSC10105	-0.774	-0.197	0.261
58	ssp5 (short spindle 5)	DRSC14955	0.299	-0.323	0.433
59	Elp1 (Elongator complex protein 1)	DRSC14250	0.417	0.48	0.0926
60	VhaM9.7-d (Vacuolar H[+] ATPase M9.7 subunit d)	DRSC15028	0.978	-0.676	0.948
61	CG11158	DRSC19389	0.344	0.694	-0.342
62	pippin	DRSC04489	-0.0137	-1.78	-1.45
63	ball (ballchen)	DRSC14145	-0.119	1.42	1.46
64	ball (ballchen)	DRSC26607	-0.161	0.882	-0.227
65	CG5567	DRSC10517	-0.237	0.706	0.997
66	CG5567	DRSC41438	-0.158	-0.00349	0.0231
67	CG11828	DRSC14394	0.268	-0.231	-0.453
68	CG11828	DRSC22580	0.425	0.504	0.522
69	CG11828	DRSC29853	-1.05	0.173	0.143

Records listed so far whose target name starts with S or s (7):
Target gene	amplicon	Wolbachia per cell robust z, rep 1	Wolbachia per cell robust z, rep 2	Wolbachia per cell robust z, rep 3
Sap130 (Sin3A-associated protein 130)	DRSC09680	-1.5	1.82	-0.00993
Sap130 (Sin3A-associated protein 130)	DRSC28079	-2.09	1.15	2
Syb (Synaptobrevin)	DRSC07559	-2.21 (active)	1.5	4.04
Syb (Synaptobrevin)	DRSC25904	-0.817	3.25	0.0731
slp1 (sloppy paired 1)	DRSC00835	0.0078	-0.54	1.03
slp1 (sloppy paired 1)	DRSC24204	0.847	0.253	0.00152
ssp5 (short spindle 5)	DRSC14955	0.299	-0.323	0.433
